Values quoted from earlier work, collected in publication PMC9238359.

Amino acid sequences for entries named in this document (tags omitted). Residues count along the entry.
UniProt Q16623, 1-20: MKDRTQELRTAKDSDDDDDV
UniProt Q16623, 25-265: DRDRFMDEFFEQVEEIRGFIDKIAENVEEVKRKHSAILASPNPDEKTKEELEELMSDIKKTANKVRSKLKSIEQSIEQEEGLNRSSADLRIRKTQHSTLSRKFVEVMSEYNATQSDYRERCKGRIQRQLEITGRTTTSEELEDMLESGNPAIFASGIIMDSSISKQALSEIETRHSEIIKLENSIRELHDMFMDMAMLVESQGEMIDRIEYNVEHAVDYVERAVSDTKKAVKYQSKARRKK
UniProt Q16623, 1-265: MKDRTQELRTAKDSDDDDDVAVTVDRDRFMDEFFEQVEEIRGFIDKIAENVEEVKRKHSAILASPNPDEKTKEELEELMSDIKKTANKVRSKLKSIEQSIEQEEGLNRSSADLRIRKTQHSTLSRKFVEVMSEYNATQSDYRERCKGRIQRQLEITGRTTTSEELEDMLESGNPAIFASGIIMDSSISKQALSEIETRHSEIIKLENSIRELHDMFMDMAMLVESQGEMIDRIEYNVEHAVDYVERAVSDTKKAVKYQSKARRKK

Key:
Test in all cases: ITC
STX1 N-terminal peptide = STX1 N-terminal peptide (UniProt Q16623)
[1] = molecular target: STX1 soluble lacking N-terminal peptide (UniProt Q16623)
STX1 soluble = STX1 soluble (UniProt Q16623)

Question: What does the source list for Munc18-1 (from UniProt P61764)?
Answer: Kd (STX1 N-terminal peptide): 58000 nM; Kd [1]: 8.1 nM; Kd (STX1 soluble): 1.5 nM
